Tested on: E. coli strain SQ110DTC
Assay: Selection of resistant mutants in SQ110DTC
Type: cell-based
Details: 3–9-fold MIC; 23S rRNA and DNA gyrase sequenced

CC[C@H]1OC(=O)[C@H](C)[C@@H](OC(=O)NCCCOCCC#Cc2ccc3c(=O)c(C(=O)O)cn(C)c3c2)[C@H](C)[C@@H](O[C@@H]2O[C@H](C)C[C@H](N(C)C)[C@H]2O)[C@](C)(OC)C[C@@H](C)C(=O)[C@H](C)[C@H]2NC(=O)O[C@@]21C [MCX-190] was tested, and the “mutations in resistant colonies” value was “mutations at A2058G or A2059G positions in the rRNA, with no mutations detected in the gyrase”.

With CC[C@H]1OC(=O)[C@H](C)[C@@H](OC(=O)NCCCCCCC#Cc2ccc3c(=O)c(C(=O)O)cn(C)c3c2)[C@H](C)[C@@H](O[C@@H]2O[C@H](C)C[C@H](N(C)C)[C@H]2O)[C@](C)(OC)C[C@@H](C)C(=O)[C@H](C)[C@H]2NC(=O)O[C@@]21C [MCX-219] the “mutations in resistant colonies” value was “mutations at A2058G or A2059G positions in the rRNA, with no mutations detected in the gyrase”.

Source: PMC11239830, “Synthetic macrolides overcoming MLSBK-resistant pathogens” (Cell Discovery, 2024)
